Measurements reported in the supplement of paper PMC9931576.
Changes are numbered by the printed parent chain. Human monoclonal antibodies against the spike receptor-binding domain (heavy:light variable regions). IC50 against pseudoviruses bearing the spike of naturally observed variants; lower = stronger; >10 µg/ml means not reached at the top dose. No active / inactive call. The stated detection limit is 0.0005 µg/ml; values near or below 0.001 µg/ml lie at the floor of the assay.

B1: BD55-5400 (protein)
chain 1: QVQLVQSGAEVKKPGASVKVSCKASGYTFTTHYMHWVRQAPGQGLEWMGIINPNTGTTTYAQKFQGRLTMTRDTSTSTVYMELSRLTSEDTAMYFCARDRVIGVVSIDWFDPWGQGTLVTVSS
chain 2: DIQLTQSPSSLSASIGDRVTLTCRASQYIRNYLNWYQQKPGKAPQLLISAASSLQSGVPSRFSGSGSGTDFTLTISSLQPEDFATYYCQQSYVTPPYTFGQGTKLEIR
B2: BD55-5402 (protein)
chain 1: EVLLVESGGGLVQPGGSLRLSCAASGFIFNTYAMHWVRQSPGKGLEYVSSITNNGDGTFYADSVKGRFTISRDNSKNTLYLQMGSLRAEDMAVYYCARESRVVVDTVLDSWGQGTLVTVSS
chain 2: DIQMTQSPSSLSASVGDRVTISCRASQSIARYLNWYQLKPGKAPKLLIYGASNLQGGVPSRFSGSGSGTEFTLTISGLQPEDFATYYCQQSYISPQYTFGQGTKLDI
B3: BD55-5411 (protein)
chain 1: QVQLVESGGGVVQPGRSLRLSCVASGFTFSTYGIHWVRQAPGKGLEWVAVISYDARDEHHADPVKGRFTISRDNSKNTLYLQMNGLRVEDTAVYYCARDPVSMIRGVTLDYHYGMDVWGQGTTVTVSS
chain 2: DIQMTQSPSAVSASIGDRVTITCRASQDISRWLVWYQQKPGTAPKLLIKIASSLQSGVPSRFSGSGSGTDFTLTISSLQPEDFATYYCQQTNSFPLTFGGGTKVEIK
B4: BD55-5416 (protein)
chain 1: QIQLQQSGPGLVKPSQTLSLTCALSGDSVSSDSSAWNWIRQSPSRGLEWLGRTYYRSKWYNDYAVSVKSRITINPDTSKNQFSLQLKSVTPEDTAVYYCVREWLDLGDNWFDPWGQGTLVTVSS
chain 2: QSALTQPASVSGSPGQSITFSCTGTSSDVGDYNYVSWYQQHPGKAPKLIIYDVNTRPAGVSNRFSGSKSGNTASLTISGLQAEDEADYYCSSYTSSRTYVFGAGTKVTVL
B5: BD55-5425 (protein)
chain 1: EVQLVESGGGLVQPGESLRLSCAASGFSFRTYPMHWVRQAPGKGLEYVSSISSNGGAFYADSVKGRFTISRDNSKNTLYLQMGSLRAEDMAVYYCAREGGDYSVVLDYWGQGTLVTISS
chain 2: DIQMTQSPSSLSASVGDRVTITCRAGQSISRYLNWYQQKPGKAPKLLIYTASSLQSGVPSRFSGSGSGTDFTLTISGLQPEDFATYYCQQSYVTPMYTFGQGTKLEIK
B6: BD55-5431 (protein)
chain 1: QMQLVESGGGVVRPGRSLRLSCAASAFPFSTYAMHWVRQAPGKGLEWVAVISYDGSDIYYADSVKGRFTISRDNSKNTLYLQMSDLGAQDTAVYYCARAGVLRNFDWLLSSGFAFWGQGTLVTVSS
chain 2: DIQMTQSPSSLSASVGDRVTITCQASQDIRNYLNWYQQKPGKAPKLLIYDASNLEPGVPSRFSGRGSGTDFTLTISSLQPEDLATYYCQQYFNLPSFGQGTKLEIK
B7: BD55-5432 (protein)
chain 1: EVQLAESGGGVGQPGRSLRLSCEASGFRFDEYAMHWVRQAPGKGLEWVSSISWNSGSIGYADSVKGRFIISRDNAKNSLYLEMNSLRSEDTALYFCVRDEGHGSGGSLGCFDYWGRGALVTVSS
chain 2: EIVLTQSPGTLSLSPGQRATLSCRASQGVGRYNLAWYQHKPGQAPRLLIHETSTRATGIPDRFSGSGSGTDFTLTITRLEPEDFAVYYCQQYGTSARTFGQGTKLEIK
B8: BD55-5438 (protein)
chain 1: QLQLQESGPGLVKPSETLSLTCSVSGGSISSRSFSWGWIRQPPGKGLEWIGSIYYSGSTSYNPSLRSRITISVETSQNQFSLRLSSVTAADTAVYFCVRHEGVDYYFNYWGQGTLVTVSS
chain 2: DIQMTQSPSTLSASVGDRVTITCRASQSISRWLAWYQQKPGKAPKLLIYMASILESGVPSRFSGSGSGTEFTLTISSLQPDDFATYYCQQYNSDSYSFAQGTKLDIK
B9: BD55-5449 (protein)
chain 1: QGQLVQSGAEVKKPGASVKVSCKASGYTSNNYAIHWVRQAPGQRLEWMGCINAGSGYTKYSQKFQDRVTITRDTSASTAYMELSSLRSEDTAQYYCARAIIAEAGMATFYHYYGMDVWGQGTTVIVSS
chain 2: SYELTQPPSVSVSPGQTARITCSGDALPKQYAYWYQQKPGQAPALIIYKDSERPSGIPERFSGSSSGTTATLTISGVQAEDEADYYCQSADSSTIYAIFGGGTKLTVL
B10: BD55-5450 (protein)
chain 1: QVQLQQWGTGLLKPSETLSLTCGVSGGSLGGYYWTWIRQPPGKGLEWIGEIYHSGSANYNPSLKSRVAISVDTSKNQFSLRLTSVTAADTGVYYCAREEAVAVIDLWGQGALVTVSA
chain 2: QSALTQPASVSGSPGQSITISCTGTSSDIGSHNYVSWYQVHPGKAPKLIIYDVSKRPSGLSHRFSGSKSGNTASLTISGLQTEDEADYYCCSYTSSTSYVLFGGGTQLTVL
B11: BD55-5453 (protein)
chain 1: EVQLVESGGGLVKPGESLRLSCAASGFTFNSYSMYWVRQAPGKGLEWVSCLSSSGTLVFYADSVKGRFTISRDNAQKSLYLQMNSLRAEDTAVYYCARESNRPRGVDFDYWGQGTLVAVSS
chain 2: DIQMTQSPSSLSASVGDRVSITCRASQSIGNYLNWYQQKPGKAPKLLIYAASNLQNGVPSRFSGSGSGTDFTLTISSLQPEDFATYYCQQGYSTPGVTFGPGTKVDIK
B12: BD55-5456 (protein)
chain 1: EVQLVESGGGWVQPGGSLRLSCEASGFTFTNFALHWVRQAPGSGLEYVSSITSNGGGTFYATSVEGRFTISRDNAKNTLYLQMGSLRHEDMGVYYCARESTITVSTILDYWGQGTRVTVSS
chain 2: B5 chain 2 with G26S, S30V, T50G, G77S, V93I, M96L, Q101P

target: SARS-CoV-2 Omicron BA.1 spike pseudovirus; test: pseudovirus neutralization IC50; higher = weaker neutralization
Method: (§1)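 Single-round VSV luciferase pseudovirus mixed with antibody dilutions for 1 h and put on Huh-7 cells for about a day; IC50 from the dose curve.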

Row | Binder | pseudovirus neutralization IC50 [µg/mL]
1 | B1 | > 10
2 | B2 | > 10
3 | B3 | > 10
4 | B4 | > 10
5 | B5 | > 10
6 | B6 | > 10
7 | B7 | > 10
8 | B8 | > 10
9 | B9 | 0.0199
10 | B10 | > 10
11 | B11 | > 10
12 | B12 | > 10

target: SARS-CoV-2 Omicron BA.2 spike pseudovirus; test: as above
Method: as §1

Row | Binder | pseudovirus neutralization IC50 [µg/mL]
13 | B1 | > 10
14 | B2 | > 10
15 | B3 | > 10
16 | B4 | > 10
17 | B5 | > 10
18 | B6 | > 10
19 | B7 | > 10
20 | B8 | > 10
21 | B9 | 0.494
22 | B10 | > 10
23 | B11 | > 10
24 | B12 | > 10

target: SARS-CoV-2 Omicron BA.2.75 spike pseudovirus; test: as above
Method: as §1

Row | Binder | pseudovirus neutralization IC50 [µg/mL]
25 | B1 | > 10
26 | B2 | > 10
27 | B3 | > 10
28 | B4 | > 10
29 | B5 | > 10
30 | B6 | > 10
31 | B7 | > 10
32 | B8 | > 10
33 | B9 | > 10
34 | B10 | > 10
35 | B11 | > 10
36 | B12 | > 10

target: SARS-CoV-2 Omicron BA.5 spike pseudovirus; test: as above
Method: as §1

Row | Binder | pseudovirus neutralization IC50 [µg/mL]
37 | B1 | > 10
38 | B2 | > 10
39 | B3 | > 10
40 | B4 | > 10
41 | B5 | > 10
42 | B6 | > 10
43 | B7 | > 10
44 | B8 | > 10
45 | B9 | 1.19
46 | B10 | > 10
47 | B11 | > 10
48 | B12 | > 10

target: SARS-CoV-2 Omicron BQ.1.1 spike pseudovirus; test: as above
Method: as §1

Row | Binder | pseudovirus neutralization IC50 [µg/mL]
49 | B1 | > 10
50 | B2 | > 10
51 | B3 | > 10
52 | B4 | > 10
53 | B5 | > 10
54 | B6 | > 10
55 | B7 | > 10
56 | B8 | > 10
57 | B9 | > 10
58 | B10 | > 10
59 | B11 | > 10
60 | B12 | > 10

target: SARS-CoV-2 Omicron XBB spike pseudovirus; test: as above
Method: as §1

Row | Binder | pseudovirus neutralization IC50 [µg/mL]
61 | B1 | > 10
62 | B2 | > 10
63 | B3 | > 10
64 | B4 | > 10
65 | B5 | > 10
66 | B6 | > 10
67 | B7 | > 10
68 | B8 | > 10
69 | B9 | > 10
70 | B10 | > 10
71 | B11 | > 10
72 | B12 | > 10

target: SARS-CoV-2 early D614G spike pseudovirus; test: as above
Method: as §1

Row | Binder | pseudovirus neutralization IC50 [µg/mL]
73 | B1 | > 10
74 | B2 | > 10
75 | B3 | > 10
76 | B4 | 0.119
77 | B5 | > 10
78 | B6 | 0.197
79 | B7 | 0.0262
80 | B8 | 0.548
81 | B9 | 0.00463
82 | B10 | 4.25
83 | B11 | 6.25
84 | B12 | > 10
